# Mutational tolerance of the Zika virus NS2B-NS3 protease

Protein: NS2B and the protease part of NS3 of Zika virus strain MR766. Positions count along the chain below; NS2B spans 2-131 and NS3 starts at 132.
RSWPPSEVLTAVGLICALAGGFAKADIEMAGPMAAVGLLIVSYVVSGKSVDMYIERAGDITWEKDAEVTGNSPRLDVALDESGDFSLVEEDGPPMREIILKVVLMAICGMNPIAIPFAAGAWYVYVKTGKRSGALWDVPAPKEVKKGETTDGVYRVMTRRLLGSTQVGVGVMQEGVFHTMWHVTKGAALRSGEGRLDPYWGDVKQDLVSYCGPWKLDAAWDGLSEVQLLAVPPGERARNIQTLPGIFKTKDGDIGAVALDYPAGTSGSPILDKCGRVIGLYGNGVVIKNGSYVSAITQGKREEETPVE

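Libraries of single mutants were passaged as virus pools on Huh-7.5 cells. Deep sequencing gave the change in frequency of each mutant relative to wild type, averaged over three replicate libraries (two for positions 207-308).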

Values are log2 effects on growth: 0 is wild type, lower means poorer growth.
Substitutions are written as wild-type residue, site number, new residue.
All changes here are to serine.
Position 1 still belongs to NS2A. In the paper, -1 or higher counts as tolerated.

| mutation | effect (log2) |
|---|---|
| N111S | 0.03 |
| P112S | -5.42 |
| I113S | -4.67 |
| A114S | -1.65 |
| I115S | -6.52 |
| P116S | -7.10 |
| F117S | -7.18 |
| A118S | -0.08 |
| A119S | -0.88 |
| G120S | -0.77 |
| A121S | -1.34 |
| W122S | -7.28 |
| Y123S | -4.76 |
| V124S | -5.77 |
| Y125S | -7.32 |
| V126S | -0.93 |
| K127S | -3.78 |
| T128S | 0.36 |
| G129S | -7.35 |
| K130S | -7.15 |
| R131S | -5.01 |
| G133S | -7.08 |
| A134S | -5.64 |
| L135S | -8.23 |
| W136S | -7.89 |
| D137S | -7.71 |
| V138S | -6.32 |
| P139S | -6.46 |
| A140S | -1.03 |
| P141S | -6.19 |
| K142S | -3.31 |
| E143S | -0.78 |
| V144S | -1.13 |
| K145S | -2.04 |
| K146S | -2.36 |
| G147S | -4.40 |
| E148S | -1.43 |
| T149S | -3.91 |
| T150S | -0.93 |
| D151S | -2.35 |
| G152S | -7.26 |
| V153S | -6.97 |
| Y154S | -6.76 |
| R155S | -7.12 |
| V156S | -6.96 |
| M157S | -6.62 |
| T158S | 1.00 |
| R159S | -4.48 |
| R160S | -1.67 |
| L161S | -6.14 |
| L162S | -6.84 |
| G163S | -4.69 |
| T165S | -0.78 |
| Q166S | -6.96 |
| V167S | -2.76 |
| G168S | -6.59 |
| V169S | -5.60 |
| G170S | -7.13 |
| V171S | -6.94 |
| M172S | -7.11 |
| Q173S | -0.06 |
| E174S | -4.42 |
| G175S | -3.13 |
| V176S | -5.76 |
| F177S | -5.30 |
| H178S | -6.50 |
| T179S | -1.06 |
| M180S | -6.21 |
| W181S | -6.45 |
| H182S | -5.68 |
| V183S | -6.38 |
| T184S | -1.91 |
| K185S | -4.84 |
| G186S | -6.37 |
| A187S | -2.38 |
| A188S | -1.96 |
| L189S | -6.01 |
| R190S | -3.12 |
| G192S | -3.96 |
| E193S | -0.69 |
| G194S | -6.44 |
| R195S | -6.39 |
| L196S | -6.71 |
| D197S | -1.22 |
| P198S | -8.14 |
| Y199S | -2.30 |
| W200S | -7.71 |
| G201S | -7.12 |
| D202S | 0.49 |

The first 9 entries again:

With N111S the assay gave 0.03.
With P112S the assay gave -5.42.
With I113S the assay gave -4.67.
With A114S the assay gave -1.65.
With I115S the assay gave -6.52.
With P116S the assay gave -7.10.
With F117S the assay gave -7.18.
With A118S the assay gave -0.08.
With A119S the assay gave -0.88.

The region was split into three libraries (1-103, 104-206, 207-308).
Values above 0 are not proof of better growth: six high scorers were tested one by one, five grew less well than wild type and one about as well.

From the data files of Ni et al. 2025, doi:10.1038/s41467-025-63602-z.